Anti-infective test results gathered from many reports (values: NIAID ChemDB through PubChem).

Common to all: growth or infection tests; species: Plasmodium falciparum; endpoint: EC50

ECn is the concentration giving n% inhibition of infection, replication or growth. Lines come from different laboratories, so protocols vary. Blank or dashed fields: not listed here.

structure	strain or isolate	mutations	read by	value
Cc1c(-c2cccc(Cc3ccc(OC(F)(F)F)cc3)c2)[nH]c2ccc(Cl)cc2c1=O	TM90C2B	-	-	0.094 µM
COc1ccc2nc3cc(Cl)ccc3c(Nc3cc(CN4CCCC4)c(O)c(CN4CCCC4)c3)c2n1	Clinical isolates	-	-	0.0135 µM
CC(=O)O[C@H]1[C@H](OC(=O)CC(C)C)C(C)(C)CC2C3=CCC4[C@@]5(C)CC[C@H](O[C@@H]6O[C@H](C(=O)O)[C@@H](O)[C@H](O[C@@H]7OC[C@H](O)[C@H](O[C@@H]8OC[C@H](O)[C@H](O)[C@H]8O)[C@H]7O)[C@H]6O[C@@H]6O[C@H](CO)[C@H](O)[C@H](O)[C@H]6O)[C@@](C)(C=O)C5CC[C@@]4(C)[C@]3(C)C[C@@H](O)[C@]21CO	GHA	-	-	>64 µM
CCCCCC[C@]12Cc3cc(OC)c(OC)cc3[C@@H](O1)c1c(c3ccccc3n(C)c1=O)O2	HB3 Dd2	-	SYBR Green / fluorescence	2.5 µM
NC(=O)C(CCCC[NH3+])NC(=O)CCCCCCCNC(=O)C(CCCC[NH3+])NC(=O)CCCCCCCNC(=O)C(N)CCCC[NH3+]	FCR3	-	hypoxanthine uptake	180 µM
CCN(CC)CCCC(C)Nc1ccnc2cc(Cl)ccc12	KAE678R-1	KAE678-resistant pfatp4 G223R	SYBR Green / fluorescence	0.0124 µM
CCCCCC(CCCCCC=O)NC(CCCC[NH3+])C(=O)NC(CCCC[NH3+])C(=O)NCCCCCCCCCCCC(=O)NC(CCCC[NH3+])C(N)=O	NF54	-	hypoxanthine uptake	2.7 µM
NC(=S)N/N=C/c1ccc2ccccc2c1	NF54	-	LDH	17.4 µM
C[C@H]1Cc2c([nH]c3cc(Cl)c(F)cc23)[C@@]2(N1)C(=O)Nc1ccc(Cl)cc12	KAE678R-2	KAE678-resistant (A184S/P990R)	SYBR Green / fluorescence	0.00366 µM
NCCCCCCCC(=O)NC(CCCC[NH3+])C(=O)NCCCCCCCC(=O)NC(CCCC[NH3+])C(N)=O	FCR3	-	hypoxanthine uptake	120 µM
COC(=O)C1=C(C(=O)OC)C2N(Cc3ccccc3)c3ccccc3[C@@]23C[C@@H](C(=O)OC)N(S(=O)(=O)c2ccc(C(F)(F)F)cc2)C3=N1	HB3 Dd2	-	SYBR Green / fluorescence	1.3 µM
NC1CCC(NC2=CCC3=NC=C(c4cn[nH]c4)[N+]3=N2)CC1	-	-	-	0.103 µg/mL
NCCCCCCCC(=O)NC(CCCC[NH3+])C(=O)NCCCCCCCC(=O)NC(CCCC[NH3+])C(=O)NCCCCCCCC(=O)NC(CCCC[NH3+])C(=O)NCCCCCCCC(=O)NC(CCCC[NH3+])C(=O)NCCCCCCCC(=O)NC(CCCC[NH3+])C(N)=O	FCR3	-	hypoxanthine uptake	73 µM
NC(=S)N/N=C/c1ccc(Cl)cc1	Dd2	-	LDH	31.8 µM
CC(=O)O[C@H]1[C@H](OC(=O)CC(C)C)C(C)(C)CC2C3=CCC4[C@@]5(C)CC[C@H](O[C@@H]6O[C@H](C(=O)O)[C@@H](O)[C@H](O[C@@H]7O[C@H](CO)[C@H](O)[C@H](O[C@@H]8OC[C@H](O)[C@H](O)[C@H]8O)[C@H]7O)[C@H]6O[C@@H]6O[C@H](CO)[C@H](O)[C@H](O)[C@H]6O)[C@@](C)(C=O)C5CC[C@@]4(C)[C@]3(C)C[C@@H](O)[C@]21CO	GHA	-	-	>32 µM
C[C@H]1CCc2c([nH]c3ccccc23)[C@@]2(N1)C(=O)Nc1ccc(Cl)cc12	KAE678R-1	KAE678-resistant (G223R)	SYBR Green / fluorescence	0.247 µM
COC(=O)C1=C(C)N(Cc2ccc(C(F)(F)F)cc2)C(=NCc2cccc(C(F)(F)F)c2)NC1c1cccc(Cl)c1	GB4	-	SYBR Green / fluorescence	0.02 µM
CCCCCC(=O)CCCCCC(=O)NC(CCCC[NH3+])C(=O)NC(CCCC[NH3+])C(=O)CCCCCC(=O)NCCCCCC(=O)NC(CCCC[NH3+])C(N)=O	NF54	-	hypoxanthine uptake	>10 µM
NCCNc1ccnc2cc(Cl)ccc12	D10	-	LDH	1.37 µM
CN1CCC(NC2=CCC3=NC=C(c4cnn(-c5ccc(F)cn5)c4)[N+]3=N2)CC1	-	-	-	0.602 µM
O=c1cc(CNCCCNc2ccnc3cc(Cl)ccc23)n(C2CC2)cc1O	K1	-	radiometric	0.72 µM
CC(=O)OC[C@@]12C(CC(C)(C)[C@@H](OC(=O)CC(C)C)[C@@H]1O)C1=CCC3[C@@]4(C)CC[C@H](O[C@@H]5O[C@H](C(=O)O)[C@@H](O)[C@H](O[C@@H]6O[C@H](CO)[C@H](O)[C@H](O[C@@H]7OC[C@H](O)[C@H](O)[C@H]7O)[C@H]6O)[C@H]5O[C@@H]5O[C@H](CO)[C@H](O)[C@H](O)[C@H]5O)C(C)(C)C4CC[C@@]3(C)[C@]1(C)C[C@H]2O	GHA	-	-	>64 µM
COc1cc2nc(N3CCCN(C)CC3)nc(NC3CCN(Cc4ccccc4)CC3)c2cc1OC	Dd2	-	fluorescence	0.072 µM
O=C(Nc1cc(C(F)(F)F)ccc1-n1cncn1)C1(c2cccc(C(F)(F)F)c2)CC1	3D7A	-	-	0.003 µM
Cc1c(-c2ccc(Cc3ccc(OC(F)(F)F)cc3)cc2)[nH]c2ccc(C(F)(F)F)cc2c1=O	3D7	-	-	0.212 µM
CCCCCCCC(=O)NC(CCCC[NH3+])C(=O)NCCCCCCCC(=O)NC(CCCC[NH3+])C(=O)NCCCCCCCC(=O)NC(CCCC[NH3+])C(=O)NCCCCCCCC(=O)NC(CCCC[NH3+])C(=O)NCCCCCCCC(=O)NC(CCCC[NH3+])C(=O)NCCCCCCCC(=O)NC(CCCC[NH3+])C(N)=O	FCR3	-	hypoxanthine uptake	44 µM
CCN1C(=NCc2cccc(Cl)c2)N[C@@H](c2cccc(C(F)(F)F)c2)C(C(=O)OC)=C1C	GB4	-	SYBR Green / fluorescence	2.8 µM
CCOC(=O)C1=C(O)/C(=C\c2cc(C)n(C3CCN(Cc4cccnc4)CC3)c2C)N=C1C	K1	Chloroquine/pyrimethamine-resistant	-	0.46 µM
CCOC(=O)C1=C(C(=O)OCC)C2N(Cc3ccccc3C(F)(F)F)c3ccccc3[C@@]23C[C@@H](C(=O)OC)N(S(=O)(=O)c2ccc(C)cc2)C3=N1	7G8 GB4	-	SYBR Green / fluorescence	0.8 µM
Cc1c(-c2ccc(Cc3ccc(OC(F)(F)F)cc3)cc2)[nH]c2ccc(O)cc2c1=O	3D7	-	-	0.139 µM
CN1CCC(NC2=CCC3=NC=C(c4cnn(-c5ccc(F)cc5F)c4)[N+]3=N2)CC1	-	-	-	0.317 µM
NC(=S)N/N=C/c1ccccc1	NF54	-	LDH	>10 µg/mL
O=C(Nc1cc(C(F)(F)F)ccc1-n1cncn1)C1(c2ccccc2)CC1	Dd2	-	-	0.102 µM

The first 3 rows once more:

structure	strain or isolate	mutations	read by	value
Cc1c(-c2cccc(Cc3ccc(OC(F)(F)F)cc3)c2)[nH]c2ccc(Cl)cc2c1=O	TM90C2B	-	-	0.094 µM
COc1ccc2nc3cc(Cl)ccc3c(Nc3cc(CN4CCCC4)c(O)c(CN4CCCC4)c3)c2n1	Clinical isolates	-	-	0.0135 µM
CC(=O)O[C@H]1[C@H](OC(=O)CC(C)C)C(C)(C)CC2C3=CCC4[C@@]5(C)CC[C@H](O[C@@H]6O[C@H](C(=O)O)[C@@H](O)[C@H](O[C@@H]7OC[C@H](O)[C@H](O[C@@H]8OC[C@H](O)[C@H](O)[C@H]8O)[C@H]7O)[C@H]6O[C@@H]6O[C@H](CO)[C@H](O)[C@H](O)[C@H]6O)[C@@](C)(C=O)C5CC[C@@]4(C)[C@]3(C)C[C@@H](O)[C@]21CO	GHA	-	-	>64 µM